Measured values from patent EP0560274B1 (priority 1992, dated 1993).
Strings that start with PEPTIDE1 are HELM notation: dots part the residues, brackets hold end groups and non-standard residues.

Experiment: general procedure: solution-phase peptide synthesis
Settings: late stage modification step

For “PEPTIDE1{[Pr2CHNHCO].[Tbg].[Asp(pyrrolidino)].[Asp(cyPn)].[gMeLeucinol]}$$$$V2.0”, the step yield was 85%.
